Data set [1] has as its system Coxsackievirus type B3 (CVB3). Nature of the data set: Anticoxsackieviral cell culture assay (XTT, EC50), CVB3. The class given is cell-based, coxsackievirus B3 in H1-HeLa cells. The protocol: (§1) Anticoxsackieviral Cell Culture Assay:
(§2) Coxsackievirus types A-21 (CAV-21) and B3 (CVB3) were purchased from American Type Culture Collection (ATCC, Rockville, Md.). Virus stocks were propagated and antiviral assays were performed in H1-HeLa cells (ATCC). Cells were grown in minimal essential medium with 10% fetal bovine serum (Life Technologies, Gaithersburg, Md.). The ability of the compounds of this invention to protect cells against either CAV-21 or CVB3 infection was measured by the XTT dye reduction method. This method is described in Weislow et al., J. Natl. Cancer Inst. (1989), vol. 81, 577-586. H1-HeLa cells were infected with CAV-21 or CVB3 at a multiplicity of infection (m.o.i.) of 0.025 or 0.075, respectively, or mock-infected with medium only. H1-HeLa cells were plated at 4×10^4 cells per well in a 96-well plate and incubated with appropriate concentrations of the test compound. One day (CVB3) or two days (CAV-21) later, XTT/PMS was added to test plates and the amount of formazan produced was quantified spectrophotometrically at 450/650 nm. The EC50 was calculated as the concentration of compound that increased the formazan production in compound-treated, virus-infected cells to 50% of that produced by compound-free, uninfected cells. The 50% cytotoxic dose (CC50) was calculated as the concentration of compound that decreased formazan production in compound-treated, uninfected cells to 50% of that produced in compound-free, uninfected cells. The therapeutic index (TI) was calculated by dividing the CC50 by the EC50.

The next data set has as its system HRV-14. Nature of the data set: Antirhinoviral H1-HeLa cell culture assay (XTT cell protection, EC50), HRV-14. The class given is cell-based, human rhinovirus (HRV) serotype-14 in H1-HeLa cells. In outline: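 H1-HeLa cells were infected with HRV-14 at m.o.i. 0.13, or mock-infected, and incubated with compound for two days. Cell protection was read by XTT/PMS formazan absorbance at 450/650 nm to give EC50. CC50 came from mock-infected cells, and TI = CC50/EC50.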

In data set [2] the test system is enterovirus type 70 (EV 70). As to the kind of experiment: Anti-enteroviral cell culture assay (XTT, EC50), EV 70. The class given is cell-based, enterovirus 70 in MRC-5 cells. The note with it: ENT-70. As to the method: (§3) Anti-Echoviral and Anti-Enteroviral Cell Culture Assays
(§4) Echovirus type 11 (ECHO 11) was purchased from ATCC (Rockville, Md.). Virus stocks were propagated and antiviral assays were performed in MRC-5 cells (ATCC). Cells were grown in minimal essential medium with 10% fetal bovine serum (Life Technologies, Gaithersburg, Md.). The ability of the compounds of this invention to protect cells against ECHO 11 infection was measured by the XTT dye reduction method (Weislow et al., J. Natl. Cancer Inst. (1989), vol. 81, 577-586). MRC-5 cells were infected with ECHO 11 at an m.o.i. of 0.003 or 0.004, respectively, or mock-infected with medium only. Infected or uninfected cells were added at 1×10^4 cells per well and incubated with appropriate concentrations of compound. Four days later, XTT/PMS was added to test plates, and the amount of formazan produced was quantified spectrophotometrically at 450/650 nm. The EC50 was calculated as the concentration of compound that increased the formazan production in compound-treated, virus-infected cells to 50% of that produced by compound-free, uninfected cells. The 50% cytotoxic dose (CC50) was calculated as the concentration of compound that decreased formazan production in compound-treated, uninfected cells to 50% of that produced in compound-free, uninfected cells. The therapeutic index (TI) was calculated by dividing the CC50 by the EC50. Activity of the compounds against enterovirus type 70 (EV 70) may be measured by the same assay as described above in this section. Enterovirus type 70 (EV 70) may be obtained from the American Type Culture Collection ATCC (Rockville, Md.).

For data set [3], the system named is Echovirus type 11 (ECHO 11). As to the kind of experiment: Anti-echoviral cell culture assay (XTT, EC50), ECHO 11. The class given is cell-based, echovirus 11 in MRC-5 cells. The protocol: as §3, §4
The test system of data set [4] is Coxsackievirus type A-21 (CAV-21). As to the kind of experiment: Anticoxsackieviral cell culture assay (XTT, EC50), CAV-21. The class given is cell-based, coxsackievirus A-21 in H1-HeLa cells. The protocol: as §1, §2
Data set [5] relates to echovirus 9 (ECHO-9). Nature of the data set: Anti-echoviral cell culture assay (EC50), ECHO-9. It counts as cell-based.
For data set [6], the system named is coxsackievirus B5 (CVB5). Nature of the data set: Anticoxsackieviral cell culture assay (EC50), CVB5. It counts as cell-based.
For data set [7], the system named is strains of human rhinovirus (HRV). Nature of the data set: Antirhinoviral H1-HeLa cell culture assay (XTT cell protection, EC50), other HRV strains. It counts as cell-based, human rhinovirus in H1-HeLa cells. In outline:
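H1-HeLa cells infected, or mock-infected, were incubated with compounds for two days. Cell protection measured by XTT/PMS formazan absorbance at 450/650 nm; TI taken as CC50 divided by EC50.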

The test system of data set [8] is coxsackievirus B2 (CVB2). As to the kind of experiment: Anticoxsackieviral cell culture assay (EC50), CVB2. The class given is cell-based.
The next data set relates to echovirus 6 (ECHO-6). Nature of the data set: Anti-echoviral cell culture assay (EC50), ECHO-6. It counts as cell-based.
Data set [9] deals with echovirus 9 (ECHO-9). As to the kind of experiment: Antiviral cell culture assay (EC50), echovirus 9. It counts as cell-based. The note with it: ECHO9.
For data set [10], the system named is coxsackievirus B5 (CVB5). Nature of the data set: Antiviral cell culture assay (EC50), coxsackievirus B5. It counts as cell-based.
In data set [11] the test system is coxsackievirus B2 (CVB2). As to the kind of experiment: Antiviral cell culture assay (EC50), coxsackievirus B2. The class given is cell-based.

In the case of `CCOC(=O)/C=C/[C@H](CCC(N)=O)NC(=O)[C@H](Cc1ccccc1)n1cccc(NC(=O)OCc2ccccc2)c1=O` [Compound 1, trans-(2′S,4S)-4-[2′-(3″-Benzyloxycarbonylamino-2″-oxo-2″H-pyridin-1″-yl)-3′-phenylpropionylamino]-6-carbamoylhex-2-enoic Acid Ethyl Ester], the TI is given as over 19 in [1]; 1518 in the data set on HRV-14; over 833 in [2]; over 63 in data set [3] (ECHO-11); over 7 in data set [4].

As for `CCOC(=O)/C=C\[C@H](CCC(N)=O)NC(=O)[C@H](Cc1ccccc1)n1cccc(NC(=O)c2cc(C)on2)c1=O` [Compound 5, trans-(2′S,4S)-6-Carbamoyl-4-(2′-{3″-[(5′″-methylisoxazole-3′″-carbonyl)amino]-2″-oxo-2″H-pyridin-1″-yl}-3′-phenylpropionylamino)hex-2-enoic Acid Ethyl Ester], the TI is given as over 17 in [1]; over 625 with HRV-14; over 556 in data set [2]; over 185 in data set [3] (ECHO-11); over 7 in [4].

Regarding `CCOC(=O)/C=C/[C@H](CCC(N)=O)NC(=O)[C@H](Cc1ccccc1)n1cccc(NC(=O)C2CCCC2)c1=O` [Compound 6, trans-(2′S,4S)-6-Carbamoyl-4-{2′-[3″-cyclopentanecarbonylamino-2″-oxo-2″H-pyridin-1″-yl]-3′-phenylpropionylamino}hex-2-enoic Acid Ethyl Ester], the TI is over 4 in [1]; over 294 in the data set with HRV-14; over 164 in data set [2]; over 29 in data set [3] (ECHO-11); over 2 in [4].

On to `CCOC(=O)/C=C/[C@H](C[C@@H]1CCNC1=O)NC(=O)[C@H](Cc1ccc(F)c(F)c1)n1cccc(NC(=O)c2cc(C)on2)c1=O` [Compound 33, trans-(2′S,3′″″S,4S)-4-(3′-(3″,4″-Difluorophenyl)-2′-{3′″-[(5″″-methylisoxazole-3″″-carbonyl)amino]-2′″-oxo-2′″H-pyridin-1′″-yl}propionylamino)-5-(2′″″-oxopyrrolidin-3′″″-yl)pent-2-enoic Acid Ethyl Ester], for which the TI is over 3333 in [1]; over 3333 with echovirus 9 (ECHO-9) [5]; over 400 in the data set with coxsackievirus B5 (CVB5) [6]; over 10000 in the data set with HRV-14; over 625 in data set [3] (ECHO-11); over 3333 in [7] (HRV-2). Moreover, the TI in [7] (HRV-3) was over 3333; in [7] (HRV-9), over 666; in data set [7] (HRV-11) it was over 3333; in data set [7] (HRV-13) it was over 714; in [7] (HRV-16), over 1666; in data set [7] (HRV-19), over 2500. Also, the TI in data set [7] (HRV-23) is over 3333; in data set [7] (HRV-25) it was over 357; in [7] (HRV-39), over 2500; in data set [7] (HRV-78) it was over 2000; in data set [7] (HRV-87), over 2000; in data set [7] (HRV-Hanks) it was over 2000. Further, the TI in the data set with coxsackievirus B2 (CVB2) [8] is listed as over 666; in data set [4], over 2500; in the data set with echovirus 6 (ECHO-6), over 666.

`C#CC[C@@H](C(=O)N[C@H](/C=C/C(=O)OC(C)(C)C)C[C@@H]1CCNC1=O)n1cccc(NC(=O)c2cc(C)on2)c1=O` [Compound 41, trans-(2′S,3′″″S,4S)-4-[2′-(3″-{[1′″-(5″″-Methylisoxazol-3″″-yl)methanoyl]amino}-2′″-oxo-2′″H-pyridin-1′″-yl)pent-4″-ynoylamino]-5-(2′″″-oxopyrrolidin-3′″″-yl)pent-2-enoic Acid tert-Butyl Ester]: the TI is over 85 in data set [1]; over 94 in the data set on echovirus 9 (ECHO-9) [5]; over 50 in the data set on coxsackievirus B5 (CVB5) [6]; over 161 in the data set on HRV-14; over 53 in data set [3] (ECHO-11); over 64 in [7] (HRV-2). For the same molecule, the TI in data set [7] (HRV-3) is recorded as over 185; in data set [7] (HRV-9) it was over 17; in data set [7] (HRV-16), over 24; in [7] (HRV-25), over 12; in data set [7] (HRV-39), over 22; in [7] (HRV-87) it was over 166. In addition, the TI in the data set with coxsackievirus B2 (CVB2) [8] was over 46; in [4] it was over 16; with echovirus 6 (ECHO-6), over 68.

Consider `CC[C@@H](C(=O)N[C@H](/C=C/C(=O)OC1CCC1)C[C@@H]1CCNC1=O)n1cccc(NC(=O)c2cc(C)on2)c1=O` [Compound 59, trans-(2′S,3′″″S,4S)-4-[2′-(3″-{[1′″-(5″″-Methylisoxazol-3″″-yl)methanoyl]amino}-2′″oxo-2′″H-pyridin-1′″-yl)butanoylamino]-5-(2′″″-oxopyrrolidin-3′″″-yl)pent-2-enoic Acid Cyclobutyl Ester], for which the TI with HRV-14 is reported as over 500; in data set [7] (HRV-1A) it was over 119; in [7] (HRV-2), over 204; in data set [7] (HRV-3), over 303; in data set [7] (HRV-9) it was over 142; in [7] (HRV-10), over 172. Also, the TI in [7] (HRV-11) is reported as over 714; in [7] (HRV-13), over 833; in data set [7] (HRV-16), over 95; in data set [7] (HRV-19), over 227; in data set [7] (HRV-23), over 270; in data set [7] (HRV-25) it was over 238. Besides, the TI in data set [7] (HRV-39) is recorded as over 81; in [7] (HRV-78), over 136; in data set [7] (HRV-Hanks), over 120; with echovirus 9 (ECHO-9) [9], over 250; with coxsackievirus B5 (CVB5) [10] it was over 250; in the data set on coxsackievirus B2 (CVB2) [11], over 200.

For the molecule `CCOC(=O)c1ccc(OCCC2CCN(c3ccc(C)nn3)CC2)cc1` [Pirodavir, reference compound], the TI in the data set on HRV-14 is over 300; in data set [2], over 167; in data set [3] (ECHO-11 (EV-11)), “ta >3”.

The record behind these values is US6514997B2, “Antipicornaviral compounds and compositions, their pharmaceutical uses, and materials for their synthesis” (Agouron Pharmaceuticals, Inc., priority 1999, dated 2003).
